Anti-infective test results gathered from many reports (values: NIAID ChemDB through PubChem).

Shared fields: growth or infection tests

Blank or dashed fields: not listed here. a–b is a range or a potency band. Inhibition is in % at the dose shown (toxicity tests: loss of growth or viability). ECn is the concentration giving n% inhibition of infection, replication or growth. Zone: diameter of growth inhibition. Rows are shuffled and stem from different studies. A number after MIC or MFC names an inhibition level or a share of isolates.

| SMILES | strain or isolate | read-out | setting | tested at | read by | organism | result |
|---|---|---|---|---|---|---|---|
| Cc1ccc(C(O)c2cccc(C(=O)CCn3ccnc3)c2)cc1 | RTCC 1377 | MIC |  |  | broth dilution | Candida guilliermondii | 64 µg/mL |
| CC(=O)N1CCN(c2ccc(OC[C@H]3CO[C@](Cn4ccnc4)(c4ccc(Cl)cc4Cl)O3)cc2)CC1 | D0 | zone |  | 20 mg/mL | agar diffusion / agar | Candida dubliniensis | 10 mm |
| OB(O)c1c(F)cc(F)cc1F |  | MFC |  |  | turbidity | Candida tenuis | 500 µg/mL |
| O=C1S/C(=C\c2ccoc2)C(=O)N1CC(O)(Cn1nccn1)c1ccc(F)cc1F | Fluconazole-resistant 805 | MIC50 |  |  |  | Candida colliculosa | 0.58 µg/mL |
| C[C@@H]1CC(=O)N(c2ccc(F)cc2)C1=O | CCC 134-2000 | MIC |  |  | broth dilution / turbidity | Candida lusitaniae | 62.5 µg/mL |
| COc1ccc(C2c3ccc4ccccc4c3Oc3nc(-c4cc5ccccc5oc4=O)[nH]c(=O)c32)cc1OC |  | zone |  | 100 µg/mL | agar diffusion / agar | Candida rugosa | 18 mm |
| Nc1ncccc1-c1cc(Cc2ccc(COc3ccccn3)cc2)no1 |  | MIC90 |  |  | broth dilution | Candida tropicalis | 0.06 µg/mL |
| O=C1c2ccccc2CC1Cn1ccnc1 | RTCC 1377 | MIC |  |  | broth dilution | Candida guilliermondii | >64 µg/mL |
| C[C@H]1[C@H](O)[C@@H](C)/C=C/C=C/C=C/C=C/C=C/C=C/C=C/[C@H](O[C@@H]2O[C@H](C)[C@@H](O)[C@H](N)[C@@H]2O)C[C@@H]2O[C@](O)(C[C@@H](O)C[C@@H](O)CC[C@H](O)[C@@H](O)C[C@@H](O)CC(=O)O[C@H]1C)C[C@H](O)[C@H]2C(=O)O | UTHSC 11-537 | MIC |  |  | broth dilution | Candida lusitaniae | 1 µg/mL |
| COc1cc2oc3cc(O)cc(O)c3c(=O)c2c2c1OC(C)(C)C=C2 |  | MIC |  |  | broth dilution | Candida spp. | >64 µg/mL |
| CC(=NNC(=O)c1snnc1C(F)(F)F)c1ccc([N+](=O)[O-])cc1 | NCIM 3462 | zone |  | 150 µg/mL | agar diffusion / agar | Candida rugosa | 0 mm |
| O=C(CCn1ccnc1)c1cccc(C(O)c2ccc(Cl)cc2)c1 | RTCC 1019 | MIC |  |  | broth dilution | Candida kefyr | 0.5 µg/mL |
| COc1ccc(/C=N\O)cc1 |  | MFC |  |  | broth dilution | Candida lipolytica | 6620 µM |
| OC(CCn1ccnc1)c1ccc(-c2ccccc2)cc1 | RTCC 1074 | MIC |  |  | broth dilution | Candida kefyr | 32 µg/mL |
| COc1ccc(/C=N/O)cc1 |  | MIC |  |  |  | Candida lipolytica | 6620 µM |
| OB1OC(N2CCCCC2)c2ccccc21 |  | MIC |  |  | turbidity | Candida tenuis | 7.8 µg/mL |
| O=C(c1ccccc1)C(c1ccccc1)n1ccnc1 |  | MFC |  |  | broth dilution | Candida parapsilosis | >256 µg/mL |
| Cc1ccc(/C=N/Nc2ccnc3cc(Cl)ccc23)cc1 |  | MFC |  |  |  | Candida famata | 40 µg/mL |
| Cc1ccc(-n2cc(C(C)(C)O)nn2)cc1C | URM 4124 | inhibition |  | 2048 µg/mL | broth dilution | Candida albicans | 0% |
| Nc1[nH]c(=O)ncc1F | 40 isolates | EC90 | pH 6 |  | broth dilution | Candida glabrata | 0.125 µg/mL |
| O=[N+]([O-])c1cccc(/C=N\O)c1 |  | MIC |  |  |  | Candida famata | 3010 µM |
| CCCCCCCCCCCCCCCC(=O)NC(CCCCN)C(=O)NC(CCCCN)C(N)=O | 165 | MIC |  |  | broth dilution | Candida guilliermondii | 8 µg/mL |
| O=C1C2=C(OC(CI)C2)C(=O)c2ccccc21 | Clinical isolate | MIC |  |  | broth dilution | Candida tropicalis | 42.6 µg/mL |
| CC[C@@H]([C@H](C)O)n1ncn(-c2ccc(N3CCN(c4ccc(OC[C@@H]5CO[C@@](Cn6cncn6)(c6ccc(F)cc6F)C5)cc4)CC3)cc2)c1=O |  | MIC50 |  |  |  | Candida guilliermondii | 0.015–2 µg/mL |
| O=c1[nH]c(-c2cc3ccccc3oc2=O)nc2c1C(c1ccc(Cl)cc1)c1ccc3ccccc3c1O2 |  | zone |  | 150 µg/mL | agar diffusion / agar | Candida rugosa | 14 mm |
| CC(=NNC(=O)c1snnc1C(F)(F)F)c1ccccn1 | NCIM 3462 | zone |  | 150 µg/mL | agar diffusion / agar | Candida rugosa | 0 mm |
| O/N=C\c1ccccc1Cl |  | MIC100 |  |  |  | Candida lipolytica | 2850 µM |
| O=c1c2cc(O)ccc2oc2cccc(O)c12 |  | MIC100 |  |  | broth dilution | Candida spp. | >64 µg/mL |
| CN(C)c1ccc(C2c3ccc4ccccc4c3Oc3nc(-c4cc5ccccc5oc4=O)[nH]c(=O)c32)cc1 |  | zone |  | 100 µg/mL | agar diffusion / agar | Candida rugosa | 12 mm |
| c1ccc(C(c2ccccc2)n2cnc3ccccc32)cc1 |  | MFC |  |  | broth dilution | Candida parapsilosis | >256 µg/mL |
| C=CC(C)(C)c1cc(C2CC(=O)c3c(cc(O)c(CC=C(C)C)c3O)O2)c(O)cc1O | hemoculture isolate 35416 | zone |  | 2 mg/mL | agar diffusion / agar | Candida parapsilosis | 11 mm |
| O/N=C/c1ccc(O)cc1 |  | MIC100 |  |  |  | Candida lipolytica | >7290 µM |
| C[C@H]1[C@H](O)[C@@H](C)/C=C/C=C/C=C/C=C/C=C/C=C/C=C/[C@H](O[C@@H]2O[C@H](C)[C@@H](O)[C@H](N)[C@@H]2O)C[C@@H]2O[C@](O)(C[C@@H](O)C[C@@H](O)CC[C@H](O)[C@@H](O)C[C@@H](O)CC(=O)O[C@H]1C)C[C@H](O)[C@H]2C(=O)O |  | MFC |  |  | broth dilution | Candida guilliermondii | 12.5 µg/mL |
| COc1cc(C2Oc3ccc4c(=O)c5c(O)cc(O)cc5oc4c3OC2CO)cc(OC)c1O |  | MIC100 |  |  | broth dilution | Candida spp. | >64 µg/mL |
| N=c1oc2ccccc2c2csc(N)c12 | ATCC 200950 | MIC |  |  | broth dilution | Candida lusitaniae | 4 µg/mL |
| C[C@@H](c1ncncc1F)[C@](O)(Cn1cncn1)c1ccc(F)cc1F | 8685 | MIC |  |  | broth dilution | Candida tropicalis | 0.015 µg/mL |
| CCCCCOc1ccc(-c2cc(-c3ccc(C(=O)N[C@H]4C[C@@H](O)[C@@H](O)NC(=O)[C@@H]5[C@@H](O)[C@@H](C)CN5C(=O)[C@H]([C@H](O)CC(N)=O)NC(=O)[C@H]([C@H](O)[C@@H](O)c5ccc(O)c(OS(=O)(=O)O)c5)NC(=O)[C@@H]5C[C@@H](O)CN5C(=O)[C@H]([C@@H](C)O)NC4=O)cc3)no2)cc1 |  | MIC50 |  |  | broth dilution | Candida lusitaniae | 0.06 µg/mL |
| O=C(NN=C1CCCCC1)c1snnc1C(F)(F)F | NCIM 3462 | zone |  | 150 µg/mL | agar diffusion / agar | Candida rugosa | 0 mm |
| CC(=O)c1ccc(B(O)O)cc1 |  | MFC |  |  | turbidity | Candida tenuis | 31.2 µg/mL |
| CC1C(=O)N(Cc2ccccc2)C(=O)C1C | CCC 134-2000 | MIC |  |  | broth dilution / turbidity | Candida lusitaniae | 125 µg/mL |
| CC(=NNC(=O)c1snnc1C(F)(F)F)c1ccc(Br)cc1Br | NCIM 3462 | zone |  | 100 µg/mL | agar diffusion / agar | Candida rugosa | 0 mm |
| C[C@@H](c1ncncc1F)[C@](O)(Cn1cncn1)c1ccc(F)cc1F | 40 isolates | EC90 | pH 7 |  | broth dilution | Candida glabrata | 0.5 µg/mL |
| CCCCCCCC/C=C\CCCCCCCC(=O)N[C@H](C(=O)N1C[C@H](C)C[C@H]1C(=O)N[C@H](C(=O)N[C@@H](CCO)C(=O)N[C@@H](C)C=O)C(C)C)[C@@H](C)O | ATCC34449 | MIC |  |  | broth dilution / visual reading | Candida lusitaniae | 2 µg/mL |
| C=CCc1ccc(O)c(OC)c1 | 2858 | MIC90 |  |  | turbidity | Candida tropicalis | 500 µg/mL |
| O=C(OC(Cn1ccnc1)c1ccc(F)cc1)c1cccc(C(F)(F)F)c1 |  | MIC |  |  | broth dilution | Candida spp. | 43.8 µg/mL |
| COc1cc(C2c3ccc4ccccc4c3Oc3nc(-c4cc5ccccc5oc4=O)[nH]c(=O)c32)ccc1O |  | zone |  | 150 µg/mL | agar diffusion / agar | Candida rugosa | 18 mm |
| OC(Cn1cncn1)(Cn1cncn1)c1ccc(F)cc1F |  | MIC |  |  | agar | Candida utilis | 25 µg/mL |
| CCC(C)n1ncn(-c2ccc(N3CCN(c4ccc(OC[C@H]5CO[C@](Cn6cncn6)(c6ccc(Cl)cc6Cl)O5)cc4)CC3)cc2)c1=O | 40 isolates | MIC | pH 6 |  | broth dilution | Candida glabrata | >16 µg/mL |
| NCCCC[C@H](NC(=O)[C@@H](N)CCCCN)C(=O)N[C@@H](CCC(N)=O)C(=O)N[C@@H](CCCN=C(N)N)C(=O)O | ATCC 10231 | inhibition |  | 25 µM |  | Candida albicans | 0% |
| OB(O)c1ccccc1 |  | MIC |  |  | turbidity | Candida tenuis | 62.5 µg/mL |
| CC(=O)OC[C@H]1O[C@@H](O[C@@H]2[C@@H](N=[N+]=[N-])[C@H](O)[C@H](O)[C@H]3OC(C)(C)O[C@H]32)[C@H](OC(C)=O)[C@@H](OC(C)=O)[C@H]1OC(C)=O | ATCC 10231 | inhibition |  | 7.8 µg/mL | broth dilution / turbidity | Candida albicans | 7.28% |
| CC(C)(O)c1cn(-c2ccc3ccccc3c2)nn1 | URM 4260 | inhibition |  | 2048 µg/mL | broth dilution | Candida albicans | 0% |
| O=C(c1ccccc1)C(c1ccccc1)n1nnc2ccccc21 |  | MIC90 |  |  | agar | Candida dubliniensis | >256 µg/mL |
| C[C@@H](c1ncncc1F)[C@](O)(Cn1cncn1)c1ccc(F)cc1F | fluconazole-sensitive | MIC50 |  |  | broth dilution | Candida spp. | 0.016 µg/mL |
| C[C@@H]1CC(=O)N(c2ccc(F)cc2F)C1=O | CCC 134-2000 | MIC |  |  | broth dilution / turbidity | Candida lusitaniae | 125 µg/mL |
| Clc1ccc(C(c2ccccc2)n2cnc3ccccc32)cc1 |  | MFC |  |  | broth dilution | Candida parapsilosis | >256 µg/mL |
| CC(C)(O)c1cn(-c2cccc3ccccc23)nn1 | URM 4819 | inhibition |  | 2048 µg/mL | broth dilution | Candida albicans | 0% |
| C[C@@H](c1ncncc1F)[C@](O)(Cn1cncn1)c1ccc(F)cc1F |  | MIC50 |  |  |  | Candida guilliermondii | 0.008–2 µg/mL |
| CC[C@@H]([C@H](C)O)n1ncn(-c2ccc(N3CCN(c4ccc(OC[C@@H]5CO[C@@](Cn6cncn6)(c6ccc(F)cc6F)C5)cc4)CC3)cc2)c1=O | 40 isolates | MIC | pH 4 |  | broth dilution | Candida glabrata | 4 µg/mL |
| C/C(=N/O)C(Cl)(Cl)Cl |  | MIC100 |  |  |  | Candida famata | 6450 µM |
| CCOc1ccc2nc3cc(N=C4NC(=O)/C(=C\C=C\c5ccc([N+](=O)[O-])o5)S4)ccc3c(N)c2c1 | ATCC 8614 | MFC |  |  | broth dilution | Candida kefyr | 1000 µg/mL |
| COC(=O)c1ccc(C[C@H](C(=O)OC)[C@@H](O)C(=O)OC)cc1 | KKP 324 | MIC |  |  |  | Candida pseudotropicalis | 1 µg/mL |
| CC(C)(O)c1cn(-c2ccc([N+](=O)[O-])cc2)nn1 | URM 4986 | inhibition |  | 2048 µg/mL | broth dilution | Candida albicans | 0% |
| COc1ccc(C2c3ccc4ccccc4c3Oc3nc(-c4cc5ccccc5oc4=O)[nH]c(=O)c32)cc1 |  | zone |  | 150 µg/mL | agar diffusion / agar | Candida rugosa | 20 mm |

A second listing of 8 rows from above:

SMILES | strain or isolate | read-out | setting | tested at | read by | organism | result
CC(C)(O)c1cn(-c2ccc3ccccc3c2)nn1 | URM 4260 | inhibition |  | 2048 µg/mL | broth dilution | Candida albicans | 0%
CC[C@@H]([C@H](C)O)n1ncn(-c2ccc(N3CCN(c4ccc(OC[C@@H]5CO[C@@](Cn6cncn6)(c6ccc(F)cc6F)C5)cc4)CC3)cc2)c1=O | 40 isolates | MIC | pH 4 |  | broth dilution | Candida glabrata | 4 µg/mL
CCCCCCCC/C=C\CCCCCCCC(=O)N[C@H](C(=O)N1C[C@H](C)C[C@H]1C(=O)N[C@H](C(=O)N[C@@H](CCO)C(=O)N[C@@H](C)C=O)C(C)C)[C@@H](C)O | ATCC34449 | MIC |  |  | broth dilution / visual reading | Candida lusitaniae | 2 µg/mL
Nc1ncccc1-c1cc(Cc2ccc(COc3ccccn3)cc2)no1 |  | MIC90 |  |  | broth dilution | Candida tropicalis | 0.06 µg/mL
COc1cc2oc3cc(O)cc(O)c3c(=O)c2c2c1OC(C)(C)C=C2 |  | MIC |  |  | broth dilution | Candida spp. | >64 µg/mL
CC(=NNC(=O)c1snnc1C(F)(F)F)c1ccc(Br)cc1Br | NCIM 3462 | zone |  | 100 µg/mL | agar diffusion / agar | Candida rugosa | 0 mm
OC(Cn1cncn1)(Cn1cncn1)c1ccc(F)cc1F |  | MIC |  |  | agar | Candida utilis | 25 µg/mL
O/N=C\c1ccccc1Cl |  | MIC100 |  |  |  | Candida lipolytica | 2850 µM